Drawing on paper PMC12269619, this text covers Kd for two molecules.

For this assay, the target named is T1, Biotinylated junctional peptide Pep21 (PfCSP peptide 21), Q7K740.
T1 chain: NPDPNANPNVDPNAN
The experiment in a line: BLI. Particulars: chain shown with the change;; parent: est. 21; read off a plot.

As usually defined, the Kd is the free concentration of one partner at which half of the binding sites on the other are occupied at equilibrium, for simple one-to-one binding.

B1: m43.151 Fab H:T96M (protein)
chain 1: QVHLVQSGAEVKKPGASVKVSCKASGYTFTSYAIHWVRQAPGQRLEWMGWIKGGNGNTRYSQKFQDRVTITRDTSASTAYMELSSLRSEDTAVYYCALLMVITPDDAFDIWGQGTMVTVSS
chain 2: DIVMTQSPDSLAVSLGERATINCKSSQNILYSSNNKNYLAWYQQKPGQPPKLLFYWASTRESGVPDRFSGSGSGTDFTLTISSLQAEDVAVYYCHQYYSSPLTFGGGTKVEIK
On to B1, for which the dissociation constant (Kd) came to 19 nM.

B2: m43.151 Fab H:A100cR (protein)
chain 1: QVHLVQSGAEVKKPGASVKVSCKASGYTFTSYAIHWVRQAPGQRLEWMGWIKGGNGNTRYSQKFQDRVTITRDTSASTAYMELSSLRSEDTAVYYCALLTVITPDDRFDIWGQGTMVTVSS
chain 2: DIVMTQSPDSLAVSLGERATINCKSSQNILYSSNNKNYLAWYQQKPGQPPKLLFYWASTRESGVPDRFSGSGSGTDFTLTISSLQAEDVAVYYCHQYYSSPLTFGGGTKVEIK
Consider B2, for which the Kd came to 14 nM.
